Source: EP1369120B1 (priority 2002, dated 2003)

Columns and labels:
[1] = test system: HCV sub-genomic replicons (Ava.5); assay: Inhibition of HCV RNA replication in replicon cells, measured by Q-PCR; type: cell-based, hepatitis C virus; settings: for EC50: 24 hours of drug treatment, HCV RNA (positive-strand), Q-PCR
[2] = test system: Huh-7 cells containing HCV sub-genomic replicons (Ava.5); assay: Cell growth inhibition (cytotoxicity) by MTS assay; type: cell-based; settings: Cytotoxicity on Ava.5 cells, treatment for 24 hours

Substance	EC50 ([1]; Ava5 cells) [µM]	IC50 [2] [µM]	inhibition of HCV replication ([1]; at 2 µM of Bi2O3 treatment, Ava5 cells, 24 hr)	HCV RNA detected (relative copy number) ([1]; 2 TM Sb2O3, 24 hr, untreated = 100%) [%]
Arsenic iodide	1	10		
Bismuth trioxide		> 10	35 % inhibition of HCV replication at 2 µM of Bi2O3 treatment	
antimony trioxide	0.8	12.5		20
